Tested on: ten strains of E. coli
Assay: Phenotype analysis (carbon source utilization) in ES MICROPLATE testing plates; note: key: +: indicates that the organism tested was capable of utilizing the carbon source listed; −: indicates that the organism tested was not capable of utilizing the carbon source listed; indicates weak positive reactions
Assay type: cell-based, Escherichia coli
Settings: 24 hours
[1] = E. coli strain 6320, W3110, 35° C.
[2] = E. coli strain 6321, MG1655, 35° C.
[3] = E. coli strain 6322, EMG2 (K12), 35° C.
[4] = E. coli strain 11547, O157:H7, 35° C.
[5] = E. coli strain 13671, O157:H? gur+, 35° C.
[6] = E. coli strain 13673, O157:H?, 35° C.
[7] = E. coli strain 13675, O157:H?, 35° C.
[8] = E. coli strain 14443, MG1655 (FB426), 35° C.
[9] = E. coli strain 14444, MG1655 xylA, 35° C.
[10] = E. coli strain 14445, MG1655 himA, 35° C.

In the case of α-hydroxy-glutaric acid γ-lactone, the carbon source utilization [1] is reported as “−”, the carbon source utilization [2] is reported as “w” and the carbon source utilization [3] is reported as “−”. For the same substance, the carbon source utilization [4] was “w”, the carbon source utilization [5] was “−” and the carbon source utilization [6] was “−”. For the same substance, the carbon source utilization [7] was “w”, the carbon source utilization [8] was “−” and the carbon source utilization [9] was “−”. The carbon source utilization [10] was “−”.

With Acetoactetic acid the carbon source utilization [1] was “w”, the carbon source utilization [2] was “−” and the carbon source utilization [3] was “−”. The carbon source utilization [4] was “−”, the carbon source utilization [5] was “−” and the carbon source utilization [6] was “−”. The carbon source utilization [7] was “−”, the carbon source utilization [8] was “−” and the carbon source utilization [9] was “−”. The carbon source utilization [10] was “−”.

For M-inositol, the carbon source utilization [1] was “−”, the carbon source utilization [2] was “−” and the carbon source utilization [3] was “−”. For the same substance, the carbon source utilization [4] was “−”, the carbon source utilization [5] was “−” and the carbon source utilization [6] was “−”. The carbon source utilization [7] was “−”, the carbon source utilization [8] was “−” and the carbon source utilization [9] was “−”. For the same substance, the carbon source utilization [10] was “−”.

Tween-40 was tested, and the carbon source utilization [1] was “w”, the carbon source utilization [2] was “w” and the carbon source utilization [3] was “w”. The carbon source utilization [4] was “w”, the carbon source utilization [5] was “w” and the carbon source utilization [6] was “w”. The carbon source utilization [7] was “w”, the carbon source utilization [8] was “−” and the carbon source utilization [9] was “−”. The carbon source utilization [10] was “−”.

M-tartaric acid was tested, and the carbon source utilization [1] was “−”, the carbon source utilization [2] was “−” and the carbon source utilization [3] was “−”. For the same substance, the carbon source utilization [4] was “w”, the carbon source utilization [5] was “+” and the carbon source utilization [6] was “−”. The carbon source utilization [7] was “−”, the carbon source utilization [8] was “−” and the carbon source utilization [9] was “−”. The carbon source utilization [10] was “−”.
